Doubling time data for one compound are collected here from patent US7348421B1, “Methods for production of p-hydroxybenzoate in bacteria” (North Carolina State University, priority 2000, dated 2008).

No dose or concentration is given here for some results.

The series relates to Pseudomonas putida DOT-T1E. Briefly: Growth on minimal medium with different carbon sources. Format: cell-based. The note with it: substance as carbon source in liquid M9 minimal medium, exponential growth phase.

On to `O=C(O)CC(O)(CC(=O)O)C(=O)O` [Citrate], for which the Doubling time came to 92 min.
